Results of unrelated studies side by side (data: NIAID ChemDB).

Shared fields: tests on isolated targets; agent: HIV-1; protein: Reverse transcriptase; endpoint: IC50

a–b is a range or a potency band.

SMILES	strain	mutations	method	value
CCN1c2ncc(CCOc3ccc(CC(=O)O)c4c3CCCC4)cc2C(=O)N(C)c2cccnc21		RT-K103N Y181C	nucleotide incorporation / radiometric	0.1–1 µM
CC(C)c1cnc(C2C=C(c3ccccc3F)N=C(N)S2)cn1			RT activity / ELISA / absorbance	26.04 µM
O=C(Nc1cccc(C(=O)Nc2ccc(S(=O)(=O)O)c3cc(S(=O)(=O)O)cc(S(=O)(=O)O)c23)c1)Nc1cccc(C(=O)Nc2ccc(S(=O)(=O)O)c3cc(S(=O)(=O)O)cc(S(=O)(=O)O)c23)c1	IIIB		nucleotide incorporation	90 µg/mL
NC(=O)[C@H](Nc1ccccc1[N+](=O)[O-])c1c(Cl)cccc1Cl				67 µM
COC(=O)[C@H](Cc1ccccc1)NP(=O)(OCCC#N)OC[C@H]1O[C@@H](n2cc(C)c(=O)[nH]c2=O)C[C@@H]1N=[N+]=[N-]				>100 µM
NC(=O)c1[nH]c2ccc(Cl)cc2c1S(=O)(=O)c1ccccc1		RT-K103N	nucleotide incorporation / radiometric	0.005 µM
CC(C)[C@H](NC(=O)c1ccccc1)C(=O)N/N=C/c1c(F)cccc1F			RT activity	162.2 µM
CCN1c2ncc(CCOc3ccc(C(=O)O)c4ccccc34)cc2C(=O)N(C)c2ccc(F)nc21	WT		nucleotide incorporation / radiometric	<0.1 µM
CCc1ccc(C(=O)Nc2ccc(S(=O)(=O)O)c3cc(S(=O)(=O)O)cc(S(=O)(=O)O)c23)cc1NC(=O)c1cccc(NC(=O)Nc2cccc(C(=O)Nc3cc(C(=O)Nc4ccc(S(=O)(=O)O)c5cc(S(=O)(=O)O)cc(S(=O)(=O)O)c45)ccc3CC)c2)c1	IIIB		nucleotide incorporation	62 µg/mL
CC(C)c1cnc(C2C=C(c3cccc([N+](=O)[O-])c3)N=C(N)S2)cn1			RT activity / ELISA / absorbance	6.34 µM
Cc1cc(C(=O)Nc2ccc(S(=O)(=O)O)c3cc(S(=O)(=O)O)cc(S(=O)(=O)O)c23)ccc1NC(=O)Nc1ccc(C(=O)Nc2ccc(S(=O)(=O)O)c3cc(S(=O)(=O)O)cc(S(=O)(=O)O)c23)cc1C	IIIB		nucleotide incorporation	70 µg/mL
C[C@H](Cc1ccc2c(N)ncnn12)OCP(=O)(O)OP(=O)(O)OP(=O)(O)O			nucleotide incorporation / radiometric	<0.05 µM
CCc1cc(CCc2nc3ccccc3o2)c(=O)[nH]c1C		RT-Y188F	nucleotide incorporation	0.0273 µM
CC(Cc1ccc2c(N)nc(F)nn12)OCP(=O)(O)OP(=O)(O)OP(=O)(O)O			nucleotide incorporation / radiometric	<0.05 µM
NC(=O)c1ccccc1NC(=O)CSc1nnnn1-c1cccc2ccccc12			nucleotide incorporation / radiometric	<2 µM
O=c1oc(-c2ccc(Cl)cc2)nc2sc3c(c12)CCCCC3			nucleotide incorporation / fluorescence	>100 µM
COC(=O)c1sccc1NC(=O)CSc1nnnn1-c1c(C)cc(C)cc1C			nucleotide incorporation / radiometric	<2 µM
O=C(O)CN1C(=O)CSC1c1ccccc1Cl			RT activity / absorbance	28.86 µM
Nc1ncnn2c(C[C@@H](CF)OCP(=O)(O)OP(=O)(O)OP(=O)(O)O)cnc12			nucleotide incorporation / radiometric	0.05–0.25 µM
Cc1nc(N2C(=O)CSC2CO)nc(C)c1C			RT activity / absorbance	4.48 µM
Nc1ncnn2c(CCOCP(=O)(O)OP(=O)(O)OP(=O)(O)O)ccc12			nucleotide incorporation / radiometric	<0.05 µM
Cc1cc(C)c(-n2nnnc2SCC(=O)Nc2cccc(Br)n2)c(C)c1			nucleotide incorporation / radiometric	<2 µM
CC(C)c1cnc(C2C=C(c3cccc(F)c3)N=C(N)S2)cn1			RT activity / ELISA / absorbance	21.11 µM
O=C(Nc1cc(C(=O)Nc2ccc(S(=O)(=O)O)cc2)cc(C(=O)Nc2ccc(S(=O)(=O)O)cc2)c1)Nc1cc(C(=O)Nc2ccc(S(=O)(=O)O)cc2)cc(C(=O)Nc2ccc(S(=O)(=O)O)cc2)c1	IIIB		nucleotide incorporation	12 µg/mL
CCN1c2ncc(CCOc3ccc(-c4ccc(C(=O)O)cc4)cc3)cc2C(=O)N(C)c2cccnc21	IIIB		nucleotide incorporation / radiometric	<0.05 µM
O=c1c(C2CCCC2)c(O)c2cccnc2n1O			luminescence	0.12 µM
CC(Cc1ccc2c(N)nc(N)nn12)OCP(=O)(O)OP(=O)(O)OP(=O)(O)O			nucleotide incorporation / radiometric	≥0.25 µM
COc1c(/C=C/C(=O)c2ccc(Cl)cc2)ccc2ccccc12			RT activity / nucleotide incorporation	5 µM
NC(=O)c1c(NC(=O)c2ccc(Cl)cc2)sc2c1CCCCC2			nucleotide incorporation / fluorescence	56 µM
NS(=O)(=O)c1ccc(NC(=O)CSc2nnnn2-c2cc(Cl)ccc2Cl)c(Cl)c1			nucleotide incorporation / radiometric	<2 µM
Cc1cc(C)cc(S(=O)(=O)c2c(C(N)=O)[nH]c3ccc(Cl)cc23)c1		RT-V179D	nucleotide incorporation / radiometric	0.05 µM
CCOC(=O)C1SCC(=O)N1c1nc(C)cc(C)n1			RT activity / absorbance	17.35 µM
Cc1ccc(C(=O)Nc2cccc(C(=O)Nc3ccc(S(=O)(=O)O)c4cc(S(=O)(=O)O)cc(S(=O)(=O)O)c34)c2)cc1NC(=O)Nc1cc(C(=O)Nc2cccc(C(=O)Nc3ccc(S(=O)(=O)O)c4cc(S(=O)(=O)O)cc(S(=O)(=O)O)c34)c2)ccc1C	IIIB		nucleotide incorporation	22 µg/mL
CC(Cc1ccc2c(=O)[nH]c(N)nn12)OCP(=O)(O)OP(=O)(O)OP(=O)(O)O			nucleotide incorporation / radiometric	<0.05 µM
CCN1c2ncc(CCOc3ccc(Nc4nc(C(=O)O)cs4)cc3C)cc2C(=O)N(C)c2cccnc21	IIIB	RT-K103N Y181C	nucleotide incorporation / radiometric	0.05–0.1 µM
COC(=O)c1ccc(NC(=O)CSc2nnnn2-c2c(C)cc(C)cc2C)c(Cl)c1			nucleotide incorporation / radiometric	<2 µM
CCN1c2ncc(CCOc3ccc(CC(=O)O)c4c3CCCC4)cc2C(=O)N(C)c2ccc(Cl)nc21		RT-V106A	nucleotide incorporation / radiometric	0.1–1 µM
COc1ccc(/C=C/CSc2nc([C@H](C)c3c(F)cccc3F)c(C)c(=O)[nH]2)cc1		Y181I	RT activity / nucleotide incorporation	2.99 µM
O=S(=O)(O)c1cc(S(=O)(=O)O)c2c(Nc3ccnc4cc(Cl)ccc34)ccc(S(=O)(=O)O)c2c1	IIIB		nucleotide incorporation	100 µg/mL
CC(/C=C/C=C\C=C\C=C(/C)C(=O)NC(C)CO)=C\C(C)C(O)/C(C)=C/C(C)CCc1ccccc1			nucleotide incorporation	386 µM
COc1c(/C=C/C(=O)c2cccc([N+](=O)[O-])c2)ccc2ccccc12			RT activity / nucleotide incorporation	5 µM
O=c1oc(-c2ccccc2O)nc2sc3c(c12)CCCCC3			nucleotide incorporation / fluorescence	>100 µM
O=S(=O)(O)c1cc(Nc2ccnc3cc(Cl)ccc23)c2c(S(=O)(=O)O)cc(S(=O)(=O)O)cc2c1	IIIB		nucleotide incorporation	50 µg/mL
COc1ccccc1NC(=O)c1c(N)sc2c1CCCCC2			nucleotide incorporation / fluorescence	51 µM
CCN1c2ncc(CCOc3ccc(C(=O)NS(C)(=O)=O)cc3C)cc2C(=O)N(C)c2cccnc21	IIIB	RT-K103N Y181C	nucleotide incorporation / radiometric	0.05–0.1 µM
CCN1c2ncc(CCOc3ccc(C(=O)O)c4c3CCCC4)cc2C(=O)N(C)c2ccc(C)nc21		RT-Y188L	nucleotide incorporation / radiometric	0.1–1 µM
Cc1nc2sc3c(c2c(=O)o1)CCC3			nucleotide incorporation / fluorescence	27.2 µM
CC(C)c1cnc(C2C=C(c3ccc(O)cc3)N=C(N)S2)cn1			RT activity / ELISA / absorbance	65.16 µM
O=C(Nc1sc2c(c1C(=O)Nc1ccccn1)CCCCC2)c1ccc(O)c(O)c1			nucleotide incorporation / fluorescence	20.9 µM
COc1ccc(C(=O)/C=C/c2ccc3ccccc3c2OC)cc1			RT activity / nucleotide incorporation	6 µM
COC(=O)[C@H](Cc1ccccc1)NP(=O)(O)OC[C@H]1O[C@@H](n2cc(C)c(=O)[nH]c2=O)C[C@@H]1N=[N+]=[N-]				>100 µM
Nc1ncnc2c(C[C@H](CF)OCP(=O)(O)OP(=O)(O)OP(=O)(O)O)cnn12			nucleotide incorporation / radiometric	<0.05 µM
CCN1c2ncc(CCOc3ccc(-c4ccc(CC(=O)O)cc4OC)cc3C)cc2C(=O)N(C)c2cccnc21	IIIB		nucleotide incorporation / radiometric	<0.05 µM
CCOC(=O)CN1C(=O)CSC1c1ccccc1			RT activity / absorbance	38.01 µM
Cc1cc(C)c(-n2nnnc2SCC(=O)Nc2cccc(Cl)c2C#N)c(C)c1			nucleotide incorporation / radiometric	<2 µM

8 of the rows above, restated:

SMILES	strain	mutations	method	value
CC(/C=C/C=C\C=C\C=C(/C)C(=O)NC(C)CO)=C\C(C)C(O)/C(C)=C/C(C)CCc1ccccc1			nucleotide incorporation	386 µM
Nc1ncnn2c(CCOCP(=O)(O)OP(=O)(O)OP(=O)(O)O)ccc12			nucleotide incorporation / radiometric	<0.05 µM
CCN1c2ncc(CCOc3ccc(Nc4nc(C(=O)O)cs4)cc3C)cc2C(=O)N(C)c2cccnc21	IIIB	RT-K103N Y181C	nucleotide incorporation / radiometric	0.05–0.1 µM
CC(Cc1ccc2c(=O)[nH]c(N)nn12)OCP(=O)(O)OP(=O)(O)OP(=O)(O)O			nucleotide incorporation / radiometric	<0.05 µM
CCN1c2ncc(CCOc3ccc(C(=O)O)c4ccccc34)cc2C(=O)N(C)c2ccc(F)nc21	WT		nucleotide incorporation / radiometric	<0.1 µM
CCc1cc(CCc2nc3ccccc3o2)c(=O)[nH]c1C		RT-Y188F	nucleotide incorporation	0.0273 µM
Cc1cc(C)c(-n2nnnc2SCC(=O)Nc2cccc(Br)n2)c(C)c1			nucleotide incorporation / radiometric	<2 µM
COC(=O)c1ccc(NC(=O)CSc2nnnn2-c2c(C)cc(C)cc2C)c(Cl)c1			nucleotide incorporation / radiometric	<2 µM

Blank or dashed fields: not listed here. ICn is the concentration giving n% inhibition. Rows are shuffled and stem from different studies.